Measured values from several laboratories, pooled; numbers as filed in NIAID ChemDB.

Common to all: cytotoxicity tests; measure: CC50

CCn is the concentration with n% toxicity to the cells. Blank or dashed fields: not listed here. Lines come from different laboratories, so protocols vary. Two numbers with a dash give a range or band.

compound	method	cell line	value
N#Cc1c(Nc2ccc(Cl)c(C(F)(F)F)c2)s[nH]c1=O	-	Huh7	>50 µM
COc1cccc(-c2ccc(C(=O)N(Cc3cccc(OCCCCCC(=O)OC(=O)O)c3)C(C)C)cc2)c1	-	RAJI	>20 µM
Clc1ccc2c(NCCCNc3nccc(N4CCCC4)n3)ccnc2c1	MTS / tetrazolium / absorbance	CRFK cells	49 µM
Cc1ccccc1Cn1ccc2nc(-c3ccccc3)nc-2c1	-	MDBK	55 µg/mL
CCCc1cc(=O)oc2c3c(c4c(c12)OC(C)(C)CC4)O[C@@H](C)[C@H](C)[C@@H]3O	-	CEMx174	10–20 µM
Nc1nc2c(ncn2C[C@@H]2CC[C@@H](P(=O)(O)O)O2)c(=O)[nH]1	-	3T3-L1	5.4 µg/mL
COc1ccc(OCc2ccc(COc3c(Cl)cccc3Cl)cc2)c(Cl)c1	-	BGMK	>50 µg/mL
CCCNCc1ccc(OCC(=O)OCC)cc1	-	RAJI	>20 µM
CN(C)c1cccc2cccc(Nc3s[nH]c(=O)c3C#N)c12	-	Huh7	>50 µM
CC(C)N(Cc1cccc(OCCCCCC(=O)OC(=O)O)c1)C(=O)c1ccc(-c2cc3ccccc3n2S(=O)(=O)c2ccccc2)cc1	-	HEK 293	>20 µM
Clc1ccc2c(-n3cc(-c4ccccc4)nn3)ccnc2c1	MTT	BGM	≥653 µM
O=c1[nH]c(=O)n([C@@H]2O[C@H](CO)[C@@H](O)[C@@H]2O)cc1/C=C/Br	-	P3HR-1	390 µM
O=C(NCc1ccc(Cl)cc1)c1c[nH]c2ccc(CCCO)cc2c1=O	-	10T1/2	>100 µM
COc1ccc2c(c1)c(Sc1ccc(N)cc1)cc(=O)n2C	-	Huh-Luc-Neo	10–100 µM
CCCc1c([Se]c2ccccc2)n(COCCOP(=O)([O-])OP(=O)([O-])OCC2O[C@@H](n3cc(C)c(=O)[nH]c3=S)C[C@@H]2F)c(=O)[nH]c1=O	MTT	CEM-T4	>100 µM
Fc1cccc(F)c1Cn1ccc2nc(-c3c(F)cccc3F)nc-2c1	-	MDBK	>83.3 µg/mL
CO[C@@H]1[C@@H](OC(N)=O)[C@@H](O)[C@H](Oc2ccc3c(O)c(NC(=O)c4ccc(O)c(CC=C(C)C)c4)c(=O)oc3c2C)OC1(C)C	-	SK-K	31 µg/mL
Nc1ccn(C[C@@H](CO)OCP(=O)(O)O)c(=O)n1	-	HS68	50 µg/mL
Clc1ccccc1-c1nc2ccn(Cc3ccc(Br)cc3)cc-2n1	-	MDBK	>100 µg/mL
CC(=O)c1cnc2c(c1)c(O)c(-c1ccccc1)c(=O)n2O	-	HeLa	<100 µM
O=c1[nH]c(=O)n([C@@H]2O[C@H](CO)[C@@H](O)[C@@H]2F)cc1/C=C/Cl	-	Human lymphoblasts	100 µM
O=c1cc(N2CCc3ccc(-c4ccncc4)cc3C2)c2cccnc2n1O	-	HeLa	<100 µM
COC1=NC=C[C@H](O)C(O[C@@H]2O[C@H](CO)[C@@H](O)[C@H](O)[C@H]2O)S1	sulforhodamine	EL-4	>100 µg/mL
CCOC(=O)CCCCCOc1cccc(CN(C(=O)c2ccc(-c3ccncc3)cc2)C(C)C)c1	-	HEK 293	>20 µM
CSc1ncnc2c1ncn2[C@H]1CO[C@@H](CO)C1	-	ATH8	>100 µM
CCOC(=O)CCCCCOc1cccc(CN(C(=O)c2ccc(-c3cc(OC)cc(OC)c3)cc2)C(C)C)c1	-	RAJI	>20 µM
FC(F)(F)c1ccccc1Cn1ccc2nc(-c3ccccc3)nc-2c1	-	MDBK	>100 µg/mL
COC(=O)c1ccc(Nc2s[nH]c(=O)c2C#N)cc1	-	Huh7	>50 µM
O=c1[nH]c(=O)n([C@H]2C[C@H](O)[C@@H](COP3(=O)OCc4cccc(-c5ccccc5)c4O3)O2)cc1/C=C/Br	-	HELF	35.3 µg/mL
CNC(=O)c1cccc(-c2cc(=O)n(O)c3ncccc23)c1	-	HeLa	<100 µM
Cc1cn([C@H]2C[C@H](F)C(COP(=O)([O-])OP(=O)([O-])OC[C@H]3O[C@@H](n4cc(C)c(=O)[nH]c4=S)C[C@@H]3F)O2)c(=S)[nH]c1=O	MTT	CEM-T4	>100 µM
Nc1nc(=O)n([C@@H]2O[C@H](CO)[C@@H](O)[C@@H]2F)cc1I	-	Human lymphoblasts	8.6 µM
CC(C)(O)c1cn(-c2ccnc3cc(Cl)ccc23)nn1	MTT	BGM	≥694 µM
Cc1ccc(Sc2cc(=O)n(C)c3ccc(C)cc23)cc1	-	Huh-Luc-Neo	10–100 µM
N#Cc1cccc(Cn2ccc3nc(-c4ccccc4)nc-3c2)c1	-	MDBK	>100 µg/mL
COc1ccc(N(Cc2c(Cl)cccc2Cl)S(=O)(=O)c2cccc(C#N)c2)cc1C(=O)O	absorbance	SG-Neo (L+I)	>33 µM
Clc1ccc2c(-n3cc(C4CC4)nn3)ccnc2c1	MTT	BGM	≥738 µM
Cc1ccccc1Nc1s[nH]c(=O)c1C#N	-	Huh7	>50 µM
O=c1cc(O)c2cccnc2n1O	-	HeLa	<100 µM
c1ccc(-c2nc3ccn(CC4CCCCC4)cc-3n2)cc1	-	MDBK	20 µg/mL
COc1ccc(C2C3=C(CC(C)(C)CC3=O)Nc3ccccc3N2C(C)=O)cc1OCc1ccccc1	-	MT4-LTR-LUC	>32 µM
OC[C@H]1C[C@@H](n2cnc3cncnc32)CO1	-	ATH8	>100 µM
N#Cc1c(Nc2ccccc2F)s[nH]c1=O	-	Huh7	>50 µM
Cc1ccc(Sc2cc(=O)n(C)c3ncccc23)cc1	-	Huh-Luc-Neo	>100 µM
O=c1[nH]c(=O)n([C@H]2C[C@H](O)[C@@H](COP3(=O)OCc4c(ccc5ccccc45)O3)O2)cc1/C=C/Br	-	HELF	54.3 µg/mL
CCOC(=O)CCCCCOc1cccc(CN(C(=O)c2ccc(-c3cccc(OCC)c3)cc2)C(C)C)c1	-	HEK 293	>20 µM
[O-][n+]1onc2ncnc(N3CC[N+]4(CC3)CC[N+]3(CCN(c5ncnc6no[n+]([O-])c56)CC3)CC4)c21	-	GMK	>1760 µM
CCOC(=O)CCCCOc1ccccc1NC(C)C	-	HepG2	>20 µM
CN1C(=O)c2c(c3cccnc3n(O)c2=O)NC1c1cccc(Oc2ccccc2)c1	-	HeLa	<100 µM
O=c1[nH]c(=O)n([C@H]2C[C@H](O)[C@@H](COP3(=O)OCc4ccc5ccccc5c4O3)O2)cc1/C=C/Br	-	HELF	34.1 µg/mL
FC(F)(F)c1cccc(-c2nc3ccn(Cc4ccc(Br)cc4)cc-3n2)c1	-	MDBK	>100 µg/mL
CCOC(=O)CC1OP(=O)(OC[C@H]2O[C@@H](n3cc(/C=C/Br)c(=O)[nH]c3=O)C[C@@H]2O)Oc2cccc(Cl)c21	-	HELF	35.8 µg/mL
O=c1[nH]c(=O)n([C@@H]2O[C@H](CO)[C@@H](O)[C@@H]2F)cc1/C=C/Br	-	Human lymphoblasts	100 µM
N#Cc1c(Nc2ccc(I)cc2Cl)s[nH]c1=O	-	Huh7	<50 µM
COc1ccc(Cn2ccc3nc(-c4ccccc4)nc-3c2)cc1	-	MDBK	36 µg/mL
C[C@H](OCc1ccccc1)[C@@H](NC(=O)OC(C)(C)C)C(=O)Nc1ccc(Sc2cc(=O)n(C)c3ccccc23)cc1	-	Huh-Luc-Neo	>100 µM
N#Cc1c(Nc2ccc(C(F)(F)F)cn2)s[nH]c1=O	-	Huh7	>50 µM

4 of the rows above, restated:

compound	method	cell line	value
N#Cc1c(Nc2ccc(Cl)c(C(F)(F)F)c2)s[nH]c1=O	-	Huh7	>50 µM
Clc1ccc2c(-n3cc(C4CC4)nn3)ccnc2c1	MTT	BGM	≥738 µM
CC(C)(O)c1cn(-c2ccnc3cc(Cl)ccc23)nn1	MTT	BGM	≥694 µM
CCCNCc1ccc(OCC(=O)OCC)cc1	-	RAJI	>20 µM